In the supplement of paper PMC3578754:
Fold change is the IC50 on the isolate divided by the IC50 on a reference virus; 1 = unchanged, higher = more resistant. Changes are given against the subtype B consensus. No active / inactive call. The values were gathered from many studies (numbered anew) with different assays, which the source does not name. Most viruses are clinical isolates; some are laboratory strains or clones with known resistance changes. Isolates with mixed residues are left out; stretches that were not sequenced show no change. Round top values that many isolates share are read here as limits; other very high values and 0.1 may be limits too.

Compound: Cc1cn([C@H]2C[C@H](N=[N+]=[N-])[C@@H](CO)O2)c(=O)[nH]c1=O [zidovudine]
Experiment: fold change of IC50 against reference virus; higher = more resistant
Method: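 Cell-culture drug susceptibility tests of virus bearing the reverse transcriptase of each isolate, gathered from many studies.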

**Q.** How did the “fold change of IC50 against reference virus” value (from here on “fold change of IC50”) turn out when “HIV-1 isolate 437 (reverse transcriptase changes: K122E F214L A272P K277R M357T A376T A400T N447S D460N S468T S519N, study 81)” was run?
**A.** 1

**Q.** How did the “fold change of IC50” value turn out when “HIV-1 isolate 446 (reverse transcriptase changes: D67N K70R K122E F214L T215F K219Q A272P K277R A376T A400T D460N S468T H483Y K512Q S519N, study 143)” was run?
**A.** 150

**Q.** Which “fold change of IC50” value does the source give for “HIV-1 isolate 467 (reverse transcriptase changes: M41L K122E L210W F214L T215Y A272P K277R A376T A400T D460N S468T H483Y K512Q S519N, study 103)” here?
**A.** 71

**Q.** How did the “fold change of IC50” value turn out when “HIV-1 isolate 482 (reverse transcriptase changes: M41L W88G K122E F214L T215Y A272P K277R M357T A376T A400T N447S D460N S468T S519N, study 103)” was run?
**A.** 1

**Q.** With “HIV-1 isolate 491 (reverse transcriptase changes: M41L D67N K70R L92I K122E F214L T215Y A272P K277R M357T A376T A400T N447S D460N S468T S519N, study 103)” as the test system, how does the “fold change of IC50” value read?
**A.** 0.7

**Q.** For “HIV-1 isolate 498 (reverse transcriptase changes: M41L K122E F214L T215Y A272P K277R A376T A400T D460N S468T H483Y K512Q S519N, study 103)”, which “fold change of IC50” value is on record?
**A.** 18

**Q.** Which “fold change of IC50” value does the source give for “HIV-1 isolate 505 (reverse transcriptase changes: W88G K122E F214L A272P K277R M357T A376T A400T N447S D460N S468T S519N, study 103)” here?
**A.** 0.2

**Q.** For “HIV-1 isolate 507 (reverse transcriptase changes: K122E F214L T215Y A272P K277R A376T A400T D460N S468T H483Y K512Q S519N, study 103)”, which “fold change of IC50” value is on record?
**A.** 3

**Q.** How did the “fold change of IC50” value turn out when “HIV-1 isolate 518 (reverse transcriptase changes: M41L K122E F214L T215Y A272P K277R M357T A376T A400T N447S D460N S468T S519N, study 103)” was run?
**A.** 33

**Q.** Which “fold change of IC50” value does the source give for “HIV-1 isolate 553 (reverse transcriptase changes: M41L K122E M184V T200I Q207E L210W R211K T215Y K219E A272P R284K I326V I329V R356K M357T A360T, study 34)” here?
**A.** 32

**Q.** “HIV-1 isolate 576 (reverse transcriptase changes: M41L D67N K122E F214L T215Y A272P K277R A376T A400T D460N S468T H483Y K512Q S519N, study 143)” was tested. Which “fold change of IC50” value did it give?
**A.** 43

**Q.** With “HIV-1 isolate 619 (reverse transcriptase changes: M41L K122E F214L T215Y A272P K277R A376T A400T D460N S468T H483Y K512Q S519N, study 72)” as the test system, how does the “fold change of IC50” value read?
**A.** 4.4

**Q.** With “HIV-1 isolate 623 (reverse transcriptase changes: M41L D67N K70R K122E F214L T215Y A272P K277R M357T A376T A400T N447S D460N S468T S519N, study 103)” as the test system, how does the “fold change of IC50” value read?
**A.** 134

**Q.** For “HIV-1 isolate 626 (reverse transcriptase changes: D67N K70R K102Q S162C K277R, study 1)”, which “fold change of IC50” value is on record?
**A.** 2

**Q.** How did the “fold change of IC50” value turn out when “HIV-1 isolate 661 (reverse transcriptase changes: D67N K70R K122E F214L T215Y K219Q A272P K277R M357T A376T A400T N447S D460N S468T S519N, study 81)” was run?
**A.** 47.7

**Q.** With “HIV-1 isolate 687 (reverse transcriptase changes: M41L D67N K70R W88S K122E F214L T215Y A272P K277R M357T A376T A400T N447S D460N S468T S519N, study 103)” as the test system, how does the “fold change of IC50” value read?
**A.** 11
